In this experiment the target is Replicase polyprotein 1ab (Severe acute respiratory syndrome coronavirus 2) (UniProt P0DTD1). The experiment in a line: Inhibition of SARS-CoV-2 3CL-Pro proteolytic cleavage of a dual-labeled substrate by FRET. Details: assay stage. In kind it is functional.

Consider `O=C1C(Cl)=C(N2CCOCC2)C(=O)N1c1ccc(Cl)c(Cl)c1`, for which the IC50 relative was 4.53 µM.

(Values after ChEMBL document CHEMBL5303709, “ECBD screening data for assay EOS300041” (2022).)
